# Single amino acid changes in Zika NS2B-NS3 and viral growth

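Libraries of single mutants were passaged as virus pools on Huh-7.5 cells. The effect is the change in frequency of a mutant, normalised to wild type, as a mean of three replicate libraries (two for positions 207-308). The aim was to find sites where inhibitor-binding pockets cannot change.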

Chain scanned (Zika virus MR766; NS2B from position 2 to 131, then the start of NS3):
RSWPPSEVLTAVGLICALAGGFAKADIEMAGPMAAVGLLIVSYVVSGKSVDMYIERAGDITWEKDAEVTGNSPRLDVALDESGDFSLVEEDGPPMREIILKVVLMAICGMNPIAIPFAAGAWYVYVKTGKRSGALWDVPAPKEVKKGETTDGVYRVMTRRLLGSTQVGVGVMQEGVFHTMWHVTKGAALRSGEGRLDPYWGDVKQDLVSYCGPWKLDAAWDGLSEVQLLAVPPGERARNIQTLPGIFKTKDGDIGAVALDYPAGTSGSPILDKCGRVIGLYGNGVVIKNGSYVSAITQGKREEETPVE

Scale: log2 effect, wild type = 0; the lower, the more harmful to the virus. A change reads original residue, position, new residue. Position 1 still belongs to NS2A. In the paper, -1 or higher counts as tolerated.

{"substitution": "T128P", "log2 growth effect": -1.09}
{"substitution": "E302Q", "log2 growth effect": 0.61}
{"substitution": "T249W", "log2 growth effect": -4.93}
{"substitution": "G192E", "log2 growth effect": -4.02}
{"substitution": "Q205T", "log2 growth effect": -2.95}
{"substitution": "L223N", "log2 growth effect": -1.60}
{"substitution": "I254P", "log2 growth effect": -6.56}
{"substitution": "P233G", "log2 growth effect": -6.24}
{"substitution": "I240W", "log2 growth effect": -5.44}
{"substitution": "R236*", "log2 growth effect": -6.97}
{"substitution": "I27L", "log2 growth effect": -1.44}
{"substitution": "D26T", "log2 growth effect": -2.13}
{"substitution": "L207I", "log2 growth effect": -2.81}
{"substitution": "A230Y", "log2 growth effect": -4.12}
{"substitution": "N283H", "log2 growth effect": -5.55}
{"substitution": "A11S", "log2 growth effect": -0.42}
{"substitution": "L189P", "log2 growth effect": -5.01}
{"substitution": "A134F", "log2 growth effect": -5.32}
{"substitution": "G255V", "log2 growth effect": -7.66}
{"substitution": "V176L", "log2 growth effect": -6.87}
{"substitution": "E174Q", "log2 growth effect": -4.83}
{"substitution": "I287M", "log2 growth effect": 0.38}
{"substitution": "Q298V", "log2 growth effect": -5.65}
{"substitution": "S49G", "log2 growth effect": -0.87}
{"substitution": "A219R", "log2 growth effect": 1.19}
{"substitution": "M180N", "log2 growth effect": -4.92}
{"substitution": "E81L", "log2 growth effect": -7.48}
{"substitution": "K204C", "log2 growth effect": -6.93}
{"substitution": "G21*", "log2 growth effect": -7.82}
{"substitution": "K250*", "log2 growth effect": -8.47}
{"substitution": "W181T", "log2 growth effect": -5.60}
{"substitution": "A114T", "log2 growth effect": -1.89}
{"substitution": "A121W", "log2 growth effect": -3.46}
{"substitution": "A11I", "log2 growth effect": -5.84}
{"substitution": "S86H", "log2 growth effect": 1.56}
{"substitution": "V8G", "log2 growth effect": -3.27}
{"substitution": "G58D", "log2 growth effect": -5.93}
{"substitution": "I278A", "log2 growth effect": -4.90}
{"substitution": "L280D", "log2 growth effect": -4.73}
{"substitution": "L259R", "log2 growth effect": -6.93}
{"substitution": "D51G", "log2 growth effect": -6.27}
{"substitution": "N71P", "log2 growth effect": -6.68}
{"substitution": "Y281*", "log2 growth effect": -7.64}
{"substitution": "H178Q", "log2 growth effect": -6.14}
{"substitution": "L189G", "log2 growth effect": -5.36}
{"substitution": "L280R", "log2 growth effect": -6.79}
{"substitution": "H178A", "log2 growth effect": -5.92}
{"substitution": "G290*", "log2 growth effect": -7.96}
{"substitution": "D137W", "log2 growth effect": -6.25}
{"substitution": "G245K", "log2 growth effect": -5.95}
{"substitution": "V169N", "log2 growth effect": -5.14}

Six mutants with high scores were retested singly and none clearly outgrew wild type, so positive values are not proof of better growth. The region was split into three libraries (1-103, 104-206, 207-308). An asterisk is a stop codon; stop codons read about -7, near the floor of the assay.

Reference: Ni et al. 2025, doi:10.1038/s41467-025-63602-z.